PubChem BioAssay AID1224833 – University of Georgia, 2016
Shown is an unselected part of about 12,000 deposited reagents. About 5,600 of them (46%) were called active. 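Active calls cover z-scores past 1 in both directions, so they include lowered as well as raised rotavirus replication.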 Unmarked entries are inactive. The numbers tell different reagents against one gene apart.

- Purpose: 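Human genes whose knock-down alters rotavirus replication in monkey cells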 (primary screen)
- Cells: monkey MA104 kidney cells
- Reagent: siRNA pool against human genes, 50 nM
- Duration: 48 h knock-down before infection; read 24 h after infection
- Challenge: infection with rotavirus strain RV3 two days after transfection; infectious dose for this stage not given
- Measurement: 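Rotavirus antigen per well by fluorescent immunoassay, normalised to non-targeting control wells on each plate and given as a standard z-score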
- Direction: z-score vs non-targeting control: higher = more rotavirus replication than with non-targeting control
- Call rule: In these data the active calls have z-score vs non-targeting control at about -1 or lower, or at about 1 or higher
- Meaning of the calls: active = z-score beyond 1 either way; inactive = z-score within 1 of zero

| Gene | reagent no. | z-score vs non-targeting control |
| --- | --- | --- |
| ARSL | 1 | 1.03 (active) |
| MYO18A | 1 | 0.835 |
| MYO18A | 2 | 0.0525 |
| LRRC37A2 | 1 | -1.33 (active) |
| KHDC1L | 1 | -0.824 |
| CHCHD7 | 1 | -1.77 (active) |
| OR2G3 | 1 | 0.503 |
| FABP5 | 1 | -0.96 |
| PLA2G4A | 1 | -0.7 |
| ADRM1 | 1 | 1.65 (active) |
| INTS5 | 1 | -0.0785 |
| SESTD1 | 1 | -1.1 (active) |
| WDR33 | 1 | -0.464 |
| TAFA2 | 1 | 0.955 |
| MGARP | 1 | 1.16 (active) |
| WASF2 | 1 | -0.534 |
| AGBL4 | 1 | -0.713 |
| PIBF1 | 1 | -0.879 |
| KIF21A | 1 | 0.742 |
| ZDHHC3 | 1 | -0.694 |
| ADAM22 | 1 | 0.705 |
| GPR19 | 1 | -1.28 (active) |
| CHMP2B | 1 | -1.89 (active) |
| ELP4 | 1 | 0.299 |
| ACSM6 | 1 | -0.919 |
| KIF22 | 1 | -1.22 (active) |
| TAF8 | 1 | 0.14 |
| PRG2 | 1 | -1.49 (active) |
| GIT1 | 1 | -0.426 |
| ATAD5 | 1 | 0.125 |
| PAFAH1B1 | 1 | -0.124 |
| FTL | 1 | -1.44 (active) |
| FSHB | 1 | -1 (active) |
| LSM5 | 1 | -1.13 (active) |
| SLC51B | 1 | -0.817 |
| ANGEL1 | 1 | 0.394 |
| MSS51 | 1 | 0.475 |
| FOXA1 | 1 | -1.23 (active) |
| RERG | 1 | -1.38 (active) |
| KDM4D | 1 | -0.711 |
| CWH43 | 1 | 1.01 (active) |
| LSAMP | 1 | 0.342 |
| MCCC2 | 1 | -0.53 |
| SUN1 | 1 | -0.901 |
| MRPL23 | 1 | -1.49 (active) |
| AFAP1 | 1 | -1.95 (active) |
| MMADHC | 1 | -0.169 |
| PRDX6 | 1 | 1.21 (active) |
| CDIP1 | 1 | -2.34 (active) |
| HOATZ | 1 | -0.987 |
| KLHL15 | 1 | -1.97 (active) |
| CRIPT | 1 | -1.69 (active) |
| SPMIP5 | 1 | -1.67 (active) |
| RHOC | 1 | -2.45 (active) |
| GMEB1 | 1 | -0.82 |
| C11orf40 | 1 | -0.293 |
| MRPL46 | 1 | -0.617 |
| HRAS | 1 | -6.64 (active) |
| TM4SF5 | 1 | 1.5 (active) |
| H2AJ | 1 | 0.563 |
| RPIA | 1 | -1.58 (active) |
| ATG16L1 | 1 | -1.37 (active) |
| ADAMTS3 | 1 | 0.748 |
| ZBTB17 | 1 | -2.33 (active) |
| TAS2R16 | 1 | 0.136 |
| ORM1 | 1 | 0.733 |
| PES1 | 1 | 0.584 |
| NPRL2 | 1 | 0.144 |
| MRPL22 | 1 | -1.8 (active) |
| SORL1 | 1 | -0.854 |
| SDHB | 1 | -1.73 (active) |
| HPS6 | 1 | -0.0685 |
| LENEP | 1 | -2.08 (active) |
| ZDHHC18 | 1 | -0.403 |
| H1-2 | 1 | 0.97 |
| GNB4 | 1 | 0.725 |
| PSMA1 | 1 | 0.841 |
| MED6 | 1 | -1.95 (active) |
| XIRP1 | 1 | -0.983 |
| PTGFRN | 1 | 2.94 (active) |
| NDFIP2 | 1 | -1.44 (active) |
| FBLIM1 | 1 | -0.682 |
| KIF11 | 1 | -0.564 |
| ARHGEF6 | 1 | -1.85 (active) |
| PAQR5 | 1 | -2.1 (active) |
| LMBR1L | 1 | 0.698 |
| MS4A3 | 1 | 1.96 (active) |
| M6PR | 1 | -2.31 (active) |
| WFDC10B | 1 | 0.159 |
| NTSR1 | 1 | -1.28 (active) |
| MPHOSPH6 | 1 | -1.73 (active) |
| DEFB112 | 1 | 0.659 |
| SCAMP2 | 1 | 1.15 (active) |
| GRPR | 1 | 3.28 (active) |
| FLAD1 | 1 | -1.35 (active) |
| SLC18A1 | 1 | -1.56 (active) |
| TEX10 | 1 | -0.422 |
| PDXDC1 | 1 | -0.903 |
| STARD6 | 1 | -0.793 |
| ACO1 | 1 | -1.32 (active) |
| SOX9 | 1 | 1.14 (active) |
| USP19 | 1 | 1.18 (active) |
| PLA1A | 1 | -1.51 (active) |
| FGA | 1 | -2.04 (active) |
| FAM13C | 1 | -1.11 (active) |
| TAF1A | 1 | 2.23 (active) |
| BOLA2B | 1 | -1.04 (active) |
| RBL2 | 1 | -1.19 (active) |
| FAM120C | 1 | -0.741 |
| CYP4V2 | 1 | 1.07 (active) |
